From patent US10221152B2 (priority 2013, dated 2019)

What was measured:
[1] = tested on: H1N1 T.R. (Tamiflu-resistant variant of H1N1 viral strain); assay: Inhibitory concentration against Tamiflu-resistant variant of H1N1 (H1N1 T.R.), MTT assay; type: cell-based, Influenza A virus
[2] = tested on: Influenza A/WSN/33 (H1N1); conditions: virus strain used for the ratio not stated

**Q.** Which “effects against drug-resistant influenza viral strains” value ([1]; according to Table 5) does the source give for `COc1c(C)c2c(c(O)c1C/C=C(\C)CCC(=O)OCCN1CCOCC1)C(=O)OC2` here?
**A.** good effects

**Q.** What about the “minimal inhibitory concentrations against the drug-resistant virus strains compared to Ribavirin” value ([1]; compared to the Ribavirin control group (Table 4)) of the same compound?
**A.** better minimal inhibitory concentrations

**Q.** And the “S.I. (Selection Index: CC50/EC50)” value [2]?
**A.** >2000

**Q.** And the “S.I. (Selection Index: CC50/EC50)” value ([2]; hydrochloride)?
**A.** >4000

Like-named read-outs stand apart in the source and are kept apart here.
